Results published in article PMC4509764.

Key:
[1] = target: T1, NanR (Clostridium perfringens strain 13) (UniProt P26833); assay: competition with a labelled probe; details: 20 mM HEPES pH 7.6, 1 mM EDTA, 10 mM ([…], room temperature 20 min, recombinant protein, protein details: C-terminal His6 (pET24a), label: digoxigenin-11-ddUTP end label, probe letters rebuilt from the primers and the genome
T1 sequence (looked up, limits assumed): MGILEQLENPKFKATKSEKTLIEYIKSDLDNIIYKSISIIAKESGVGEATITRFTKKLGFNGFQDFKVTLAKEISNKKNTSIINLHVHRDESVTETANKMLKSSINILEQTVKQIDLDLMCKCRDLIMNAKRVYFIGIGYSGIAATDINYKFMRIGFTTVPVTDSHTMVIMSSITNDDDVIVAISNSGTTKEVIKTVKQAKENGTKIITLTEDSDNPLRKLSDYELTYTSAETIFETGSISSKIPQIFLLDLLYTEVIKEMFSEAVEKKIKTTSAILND

[2] = target: T1, NanR (Clostridium perfringens strain 13); assay: EMSA; details: 20 mM HEPES pH 7.6, 1 mM EDTA, 10 mM ([…], room temperature 20 min, recombinant protein, protein details: C-terminal His6 (pET24a), label: digoxigenin-11-ddUTP end label, probe letters rebuilt from the primers and the genome

Sequence: AGTTAAAAGCAATTAAAAAAACATCTTGAAGTTTTAAGAAAATTATTTTCAATAAATTTTATTTGCGAAAATAATTTTCTTTTTATTTAGAGTTAAGAATTATTTTATTGGTTTAACTACAAGAATACTTGTTTGAATAGGAGGAAAGTCAGATAACAAGTATTTTGAAATAAAATTTAGATATAAATAATTAAAGAGTAGTAAGAAAGAATAAGAAAACTTTATAGAAAAACTTACCATAAAAATATCTTTATTGTATTGAAATTTCTTTAGAAAAGGATTACAATGTTAAATATAAGAAAAATATTTTCAAATTATTCTTATTTTGAAAATACTTTTCATAAAAATGAAATATTTTAGTATTCAAATTTTAATCGTTGCATTTCAAGAAGTATATTCAT (double strand) [nanI promoter probe]
- binding result [1]: binds
- binding result [2]: binds

The exact form of at least one protein or probe is not confirmed. Tags and fusion partners may be left off the protein sequences shown.
